# Laboratory results from PMC3764172.
# Target: T1, PGN_0753 (HaeR) response regulator, His6-tagged (Porphyromonas gingivalis ATCC 33277) (UniProt B2RIS7)
# T1 sequence (looked up): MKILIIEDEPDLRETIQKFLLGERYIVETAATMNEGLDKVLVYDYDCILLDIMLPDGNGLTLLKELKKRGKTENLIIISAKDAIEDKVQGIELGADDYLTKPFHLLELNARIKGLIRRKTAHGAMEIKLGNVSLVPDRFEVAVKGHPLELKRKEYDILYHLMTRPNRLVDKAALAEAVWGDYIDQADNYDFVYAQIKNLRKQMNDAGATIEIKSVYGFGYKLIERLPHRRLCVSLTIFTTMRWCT
# Experiment: EMSA
# Conditions: 1 mM acetyl phosphate; recombinant protein; residues 1-245; protein details: C-terminal His6 (pET-22b+); label: DIG; probe letters rebuilt from the primers and the genome
sequence,measurement,value
TAGATGATTTTCCTTGTCATGCCATAGCTTTATGTCATTGATTATACCTAAATACACGAAATAATCGGCTGACACACAATATAATGAATGAATAAAAGCACCTGTTTATTGAGCAAAGGTCTCTATAAGAAAACAAAAGCTATATAGCTTTCGGTCGATTCCTATATAGGATTGAGCTGATTACTATATAGCTTTCGTTTGATTGCTATATAGGATTGGGCCGATTGCTATATAGCTTTGTTTACACTCCTATATAGTCATCCCCTAAAAAGTCCCTTTCAGGGAGATATTGTCAGCAAACAGTATCTCGCAGA (double strand) [hmuY (PGN_0558) promoter],binding result,binds

# Where a protein sequence is shown, tags need not be part of it.
